Results of unrelated studies side by side (data: NIAID ChemDB).

Common to all: enzyme or target tests

ICn: concentration for n% inhibition.

structure,read-out,method,target,agent,result
COc1cc(NC(C)CCCN)c2nccc(C)c2c1OCCCCCc1ccccc1,IC50,nucleotide incorporation,Hematin,Plasmodium falciparum,100 µM
CO[C@H](C(=O)NO)[C@@H](CC(C)C)C(=O)N[C@H](C(=O)OC1CCCC1)c1ccccc1,Ki,fluorescence,PfM1AAP,Plasmodium falciparum,1.4 µM
CCCCCCOc1c(OC)cc(NC(C)CCCN)c2nc(OC)c(C)cc12,IC50,nucleotide incorporation,Hematin,Plasmodium falciparum,41 µM
CC(C)CCn1c(Sc2ccc(C#N)c([N+](=O)[O-])c2)nnc1-c1ccc(Cl)cc1,IC50,,Thioredoxin reductase,Plasmodium falciparum,5.6 µM
O=c1c2[nH]cnc2ncn1CCNCCP(=O)(O)O,IC50,absorbance,Hypoxanthine-guanine phosphoribosyltransferase,Plasmodium vivax,>250 µM
Cc1[nH]nc2c1C(c1cc(C#N)cc(C(F)(F)F)c1)(C1CC=CC1)C(C#N)=C(N)O2,Ki,absorbance,Serine hydroxymethyltransferase,Plasmodium falciparum,0.659 µM
Cc1c(-c2ccc(-c3ccc(OC(C)(C)C)cc3)nc2)[nH]c2ccccc2c1=O,IC50,,Cytochrome bc1,Plasmodium falciparum,0.0151 µM
Cc1[nH]nc2c1C(C)(c1cc(Cl)cc(Cl)c1)C(C#N)=C(N)O2,IC50,absorbance,Serine hydroxymethyltransferase,Plasmodium falciparum,3.57 µM
Cc1ccc(Cl)c2nc(N3CCN(C(=O)c4ccc([N+](=O)[O-])o4)CC3)sc12,IC50,,Thioredoxin reductase,Plasmodium berghei,<4 µM
Cc1[nH]nc2c1C(c1cc(C#N)cc(-c3ccnn3C)c1)(C1CCC1)C(C#N)=C(N)O2,Ki,absorbance,Serine hydroxymethyltransferase,Plasmodium falciparum,0.528 µM
COc1cc(NC(C)CCCN)c2nccc(C)c2c1OCc1cccc(C(F)(F)F)c1,IC50,nucleotide incorporation,Hematin,Plasmodium falciparum,27 µM
Cc1[nH]nc2c1C(c1cc(C#N)cc(N3CCOCC3)c1)(C1CCC1)C(C#N)=C(N)O2,IC50,absorbance,Serine hydroxymethyltransferase,Plasmodium falciparum,0.28 µM
COc1cc(NC(C)CCCN)c2nccc(C)c2c1OCCCCCc1ccc(C)cc1,IC50,nucleotide incorporation,Hematin,Plasmodium falciparum,44 µM
COC(=O)CCS(=O)(=O)N(C)c1cc(C#N)cc(C2(C(C)C)C(C#N)=C(N)Oc3n[nH]c(C)c32)c1,Ki,absorbance,Serine hydroxymethyltransferase,Plasmodium falciparum,0.455 µM
O=C(c1ccc([N+](=O)[O-])o1)N1CCN(c2nc3c(Cl)cccc3s2)CC1,IC50,,Thioredoxin reductase,Plasmodium falciparum,5.4 µM

Repeating the final 2 entries:

{"structure": "COC(=O)CCS(=O)(=O)N(C)c1cc(C#N)cc(C2(C(C)C)C(C#N)=C(N)Oc3n[nH]c(C)c32)c1", "read-out": "Ki", "method": "absorbance", "target": "Serine hydroxymethyltransferase", "agent": "Plasmodium falciparum", "result": "0.455 µM"}
{"structure": "O=C(c1ccc([N+](=O)[O-])o1)N1CCN(c2nc3c(Cl)cccc3s2)CC1", "read-out": "IC50", "target": "Thioredoxin reductase", "agent": "Plasmodium falciparum", "result": "5.4 µM"}

Neighbouring rows are from separate reports. An empty or dashed field is not shown.